Pooled drug test results. Numbers come from NIAID ChemDB, via PubChem.

All rows: toxicity to cultured cells; cell line: VERO; read by: MTT; read-out: CC50

Rows are shuffled and stem from different studies. CCn is the concentration with n% toxicity to the cells.

SMILES,result
Cc1ccc(COc2ccc(-c3nc(N)nc(N)n3)cc2)cc1,495 µM
NNC(=S)NN=C1/C(=C/c2ccco2)CNC/C1=C\c1ccco1,362 µg/mL
Nc1ncnc2c1ncn2[C@H]1OC[C@@](F)(CCP(=O)(O)O)[C@H]1F,>100 µM
CO/N=C1/C(=O)N(CCn2cc(CN3CCN(c4cc5c(cc4F)c(=O)c(C(=O)O)cn5C4CC4)CC3)nn2)c2ccc(C)cc21,19.9 µM
COc1ccc2c3c([nH]c2c1)C(C)=NCC3,17.64 µg/mL
CC(=O)c1c(C)cc2cccc(O)c2c1O,119.6 µg/mL
Oc1cc(C(O)CCc2ccco2)ccc1Oc1ccccc1,>300 µg/mL
COc1ccc(N2CCN(C(=O)Cc3nn(Cc4ccc(Br)cc4F)c(=O)c4ccccc34)CC2)cc1,>111 µM
COc1cc(NC(=O)Nc2cccc(CNC(=O)O[C@H]3CCOC3)c2)ccc1-c1cnco1,>31 µM
CO[C@H]1/C=C/O[C@@]2(C)Oc3c(C)c(O)c4c(O)c(c(/C=N/N5CCN(C)CC5)c(O)c4c3C2=O)NC(=O)/C(C)=C\C=C\[C@H](C)[C@H](O)[C@@H](C)[C@@H](O)[C@@H](C)[C@H](OC(C)=O)[C@@H]1C,512 µM
COc1ccc(-c2nc(N)nc(N)n2)cc1OCc1cccc(Cl)c1,285 µM
Clc1ccc(N=C2/C(=C/c3ccco3)CNC/C2=C\c2ccco2)c(Cl)c1,226 µg/mL
O=C(Cc1nn(Cc2ccc(Br)cc2F)c(=O)c2ccccc12)Nc1ccc(Cl)cc1,>125 µM
C(=C1/CNC/C(=C\c2ccco2)C1=NNc1ccccc1)/c1ccco1,144 µg/mL
Cc1ccc(CCC(O)c2ccc(Oc3ccccc3)c(O)c2)cc1,>300 µg/mL
O=c1ccn([C@@H]2C=C(F)[C@H](CO)S2)c(=O)[nH]1,>100 µM
Fc1ccc(N=C2/C(=C/c3ccco3)CNC/C2=C\c2ccco2)cc1,152 µg/mL
CC[C@@H](C(C)C)[C@H](O)[C@@H](O)[C@@H](C)[C@H]1CC[C@H]2[C@@H]3CC(=O)C4C[C@H](F)CC[C@]4(C)[C@H]3CC[C@]12C,301 µM
CC(=O)OC[C@@H]1C=C[C@H](n2cc(F)c(N)nc2=O)O1,>100 µM
Cc1cccc(C)c1NC(=O)Cc1nn(Cc2ccc(Br)cc2F)c(=O)c2ccccc12,>126 µM
CC(Oc1ccc(-c2nc(N)nc(N)n2)cc1)c1ccc(Cl)cc1,354 µM
C[C@H]1O[C@@H](O[C@H]2[C@@H](O)C[C@H](O[C@H]3CC[C@@]4(C)[C@H](CC[C@@H]5[C@@H]4CC[C@]4(C)[C@@H](C6=CC(=O)OC6)CC[C@]54O)C3)O[C@@H]2C)C[C@H](O)[C@@H]1O,10.05 µM
CO[C@H]1/C=C/O[C@@]2(C)Oc3c(C)c(O)c4c(O)c(c(/C=N/N5CCN(C)CC5)c(O)c4c3C2=O)NC(=O)/C(C)=C\C=C\[C@H](C)[C@H](O)[C@@H](C)[C@@H](O)[C@@H](C)[C@H](OC(C)=O)[C@@H]1C,512 µg/mL
C[C@H]1OC(O[C@H]2[C@@H](O)C[C@H](O[C@@]3(C)[C@@H](O)C[C@H](O[C@H]4CC[C@@]5(C)[C@H](CC[C@@H]6[C@@H]5C[C@@H](O)[C@]5(C)[C@@H](C7=CC(=O)OC7)CC[C@]65O)C4)O[C@@H]3C)O[C@@H]2C)C[C@H](O)[C@@H]1O,5.57 µM
COc1ccc(COc2cc(-c3nc(N)nc(N)n3)ccc2OC)cc1,399 µM
CO[C@H]1C[C@H](O[C@H]2[C@@H](O)C[C@H](O[C@H]3[C@@H](O)C[C@H](O[C@H]4CC[C@@]5(C)[C@H](CC[C@@H]6[C@@H]5CC[C@]5(C)[C@@H](C7=CC(=O)OC7)CC[C@]65O)C4)O[C@@H]3C)O[C@@H]2C)O[C@H](C)[C@H]1O,88.5 µM
Clc1ccc(N=C2/C(=C/c3ccco3)CNC/C2=C\c2ccco2)cc1,316 µg/mL
Nc1nc2c(ncn2C2CC(/C=C/P(=O)(O)O)(C(F)(F)F)CO2)c(=O)[nH]1,>100 µM
Nc1nc2c(ncn2[C@@H]2OC[C@@](/C=C/P(=O)(O)O)(CO)[C@@H]2F)c(=O)[nH]1,>100 µM
C[C@]12CCC3C(CC[C@H]4C[C@@H](O)CC[C@]34C)C1C[C@@H](Br)C21OCCO1,2322 µM
Oc1cc(Cl)ccc1Oc1ccc(Cl)cc1Cl,>300 µg/mL
CC/C=C\C/C=C\C/C=C\C/C=C\C/C=C\CCCC(=O)OC(CO[C@H]1O[C@H](CS(=O)(=O)O)[C@@H](O)[C@H](O)[C@H]1O)OC(=O)CCCCCCCCCCCCCCC,114 µg/mL
Nc1nncc2c([C@H]3CC[C@@H](/C=C/P(=O)(O)O)C3(F)F)c[nH]c12,36 µM
Nc1nc(=O)n([C@H]2C=C(F)[C@@H](CO)S2)cc1F,>100 µM
CO[C@H]1/C=C/O[C@@]2(C)Oc3c(C)c(O)c4c(O)c(c(/C=N/N5CCN(C)CC5)c(O)c4c3C2=O)NC(=O)/C(C)=C\C=C\[C@H](C)[C@H](O)[C@@H](C)[C@@H](O)[C@@H](C)[C@H](OC(C)=O)[C@@H]1C,>300 µg/mL
Cc1ccc2c(c1)C(=O)C(=O)N2CCn1cc(CN2CCN(c3cc4c(cc3F)c(=O)c(C(=O)O)cn4C3CC3)CC2)nn1,167 µM
Nc1nc2c(ncn2[C@H]2C=C(F)[C@@H](CO)S2)c(=O)[nH]1,>100 µM
CO[C@H]1/C=C/O[C@@]2(C)Oc3c(C)c(O)c4c(O)c(c(/C=N/N5CCN(C)CC5)c(O)c4c3C2=O)NC(=O)/C(C)=C\C=C\[C@H](C)[C@H](O)[C@@H](C)[C@@H](O)[C@@H](C)[C@H](OC(C)=O)[C@@H]1C,512 µg/mL
C[C@]12CCC3C(CC[C@H]4C[C@@H](O)CC[C@]34C)C1C[C@@H](Br)C2=O,98.28 µM
O=C(Cc1nn(Cc2ccc(Br)cc2F)c(=O)c2ccccc12)N1CCN(Cc2ccccc2)CC1,114 µM
O=C(CCc1ccc(F)cc1)c1ccc(Oc2ccccc2)c(O)c1,>300 µg/mL
CC[C@H](/C=C/[C@@H](C)[C@H]1CC[C@H]2[C@@H]3CC(=O)[C@@]4(F)CC=CC[C@]4(C)[C@H]3CC[C@]12C)C(C)C,935 µM
CC(=O)O[C@H]1CC[C@]2(C)C3CC[C@@]4(C)C(C[C@@H](Br)C45OCCO5)C3CC[C@H]2C1,64.11 µM
Nc1ccn([C@@H]2C=C(F)[C@H](CO)S2)c(=O)n1,>100 µM
C[C@]12CCC3C(CC[C@H]4C[C@@H](O)CC[C@]34C)C1C=CC21OCCO1,487.5 µM
O=C1/C(=C/c2ccco2)CNC/C1=C\c1ccco1,352 µg/mL
Cc1c(Cl)cccc1NC(=O)Cc1nn(Cc2ccc(Br)cc2F)c(=O)c2ccccc12,>121 µM
C[C@H]1O[C@@H](O[C@H]2CC[C@@]3(C)[C@H](CC[C@@H]4[C@@H]3CC[C@]3(C)[C@@H](C5=CC(=O)OC5)C(O)C[C@]43O)C2)C[C@H](O)[C@@H]1O[C@@H]1O[C@H](CO)[C@@H](O)[C@H](O)[C@H]1O,148.5 µM
C[C@]12CCC3C(CC[C@H]4C[C@@H](O)CC[C@]34C)C1[C@H](O)CC2=O,435.6 µM
Fc1ccccc1N=C1/C(=C/c2ccco2)CNC/C1=C\c1ccco1,318 µg/mL
Nc1nc(N)nc(-c2ccc(OC(c3ccccc3)c3ccccc3)cc2)n1,417 µM
COc1ccc(C[C@H]2NC[C@H](O)[C@H]2OC(C)=O)cc1,45 µM
Nc1ncnc2c1ncn2CCOCP(=O)(O)O,>100 µM
COc1ccc(N=C2/C(=C/c3ccco3)CNC/C2=C\c2ccco2)cc1,204 µg/mL
O=C(CCc1ccc(Cl)cc1)c1ccc(Oc2ccccc2)c(O)c1,>300 µg/mL
Nc1ncnc2c1ncn2C1CC(CCP(=O)(O)O)(C(F)(F)F)CO1,>100 µM
CO[C@H]1[C@@H](O)C[C@H](O[C@H]2[C@@H](O)C[C@H](O[C@H]3[C@@H](O)C[C@H](O[C@H]4CC[C@@]5(C)[C@H](CC[C@@H]6[C@@H]5CC[C@]5(C)[C@@H](C7=CC(=O)OC7)CC[C@]65O)C4)O[C@@H]3C)O[C@@H]2C)O[C@@H]1C,132.3 µM
CC(=O)O[C@H]1CC[C@@]2(C)C(=CC[C@@H]3[C@@H]2CC[C@]2(C)C(=O)[C@H](OC(C)=O)C[C@@H]32)C1,1730 µM
CC1(C)CC(=O)C2=C(C1)N(NC(=O)c1ccncc1)C1=C(C(=O)CC(C)(C)C1)C2c1cccc([N+](=O)[O-])c1,121 µM
CC[C@@H](C(C)C)[C@@H](O)[C@H](O)[C@@H](C)[C@H]1CC[C@H]2[C@@H]3CC(=O)[C@@]4(F)C[C@@H](O)CC[C@]4(C)[C@H]3CC[C@]12C,100 µM
Cc1ccc(NC(=O)Cc2nn(Cc3ccc(Br)cc3F)c(=O)c3ccccc23)c(C)c1,>126 µM
CO/N=C1/C(=O)N(CCn2cc(CN3CCN(c4cc5c(cc4F)c(=O)c(C(=O)O)cn5C4CC4)CC3)nn2)c2ccc(Cl)cc21,38.57 µM
CC(C)(C)c1cccc(N2CC3CN(Cc4ccc([N+](=O)[O-])o4)CC3C2)c1,>64 µg/mL
CO[C@H]1C[C@H](O[C@H]2CC[C@]3(C=O)[C@H]4CC[C@]5(C)[C@@H](C6=CC(=O)OC6)CC[C@]5(O)[C@H]4CC[C@]3(O)C2)O[C@H](C)[C@H]1O,>250 µM
CC[C@@H](C(C)C)[C@H](O)[C@@H](O)[C@@H](C)[C@H]1CC[C@H]2[C@@H]3CC(=O)[C@@]4(F)C[C@@H](O)CC[C@]4(C)[C@H]3CC[C@]12C,160 µM
O=C(Cc1nn(Cc2ccc(Br)cc2F)c(=O)c2ccccc12)N1CCN(c2ccccn2)CC1,<117 µM
N[C@@H]1CONC1=O,>62.5 µg/mL
C[C@]12CCC3C(CC[C@H]4C[C@@H](O)CC[C@]34C)C1C=CC2=O,220 µM
Cc1ccc(CCC(=O)c2ccc(Oc3ccccc3)c(O)c2)cc1,>300 µg/mL
Cc1cn([C@@H]2C=C(F)[C@H](CO)S2)c(=O)[nH]c1=O,>100 µM
CC(=O)O[C@H]1[C@@H](O)C[C@H](O[C@H]2[C@@H](O)C[C@H](O[C@H]3[C@@H](O)C[C@H](O[C@H]4CC[C@@]5(C)[C@H](CC[C@@H]6[C@@H]5CC[C@]5(C)[C@@H](C7=CC(=O)OC7)CC[C@]65O)C4)O[C@@H]3C)O[C@@H]2C)O[C@@H]1C,10.55 µM

The last 6 rows once more:

O=C(Cc1nn(Cc2ccc(Br)cc2F)c(=O)c2ccccc12)N1CCN(c2ccccn2)CC1 ; result: <117 µM
N[C@@H]1CONC1=O ; result: >62.5 µg/mL
C[C@]12CCC3C(CC[C@H]4C[C@@H](O)CC[C@]34C)C1C=CC2=O ; result: 220 µM
Cc1ccc(CCC(=O)c2ccc(Oc3ccccc3)c(O)c2)cc1 ; result: >300 µg/mL
Cc1cn([C@@H]2C=C(F)[C@H](CO)S2)c(=O)[nH]c1=O ; result: >100 µM
CC(=O)O[C@H]1[C@@H](O)C[C@H](O[C@H]2[C@@H](O)C[C@H](O[C@H]3[C@@H](O)C[C@H](O[C@H]4CC[C@@]5(C)[C@H](CC[C@@H]6[C@@H]5CC[C@]5(C)[C@@H](C7=CC(=O)OC7)CC[C@]65O)C4)O[C@@H]3C)O[C@@H]2C)O[C@@H]1C ; result: 10.55 µM